Compound potency records, mixed from different reports. Data source: NIAID ChemDB in PubChem.

Blank or dashed fields: not listed here.

smiles,kind,agent,strain or isolate,protein,method,measure,tested at,value
COc1ccccc1N1CCN(c2cncc(-c3ccc(C)cc3)n2)CC1,target,Cytomegalovirus,,UL97 kinase,,IC50,,<100 µM
CCCCCCCCCCCCCC(=O)O,culture,Mycobacterium tuberculosis,H37Rv,,,MIC,,25 µg/mL
CC1(C)OCC(COC(c2ccccc2)(c2ccccc2)c2ccccc2)O1,culture,Mycobacterium tuberculosis,H37Rv,,BACTEC,MIC,,>12.5 µg/mL
NNC(=O)c1ccccc1O,culture,Mycobacterium tuberculosis,H37Rv,,,MIC,,100 µg/mL
COc1cc(C)c(CC(NC(=O)C2CCCCC2)C(=O)O)c(OC)c1,culture,Mycobacterium tuberculosis,H37Rv,,BACTEC,MIC bound,,>12.5 µg/mL
CSc1ccc(-c2cncc(N3CCN(c4ccc(C(F)(F)F)cc4)CC3)n2)cc1,target,Cytomegalovirus,,UL97 kinase,,IC50,,<10 µM
CN(C)CCC(=O)c1ccc(Br)cc1,culture,Mycobacterium tuberculosis,H37Rv,,,MIC,,>100 µg/mL
CSc1ccc(-c2cncc(N3CCN(c4ccncc4)CC3)n2)cc1,target,Cytomegalovirus,,UL97 kinase,,IC50,,<1 µM
CC1=N/C(=C/c2ccc(Cl)cc2)C(=O)N1n1c(-c2ccccc2)nc2ccccc2c1=O,culture,Mycobacterium tuberculosis,H37Rv,,BACTEC,inhibition,12.5 µg/mL,75%
Nc1ccc(S(=O)(=O)O)c(O)c1,culture,Mycobacterium tuberculosis,H37Rv,,,MIC,,>100 µg/mL
COc1ccccc1N1CCN(c2cncc(-c3ccc(C(C)(C)C)cc3)n2)CC1,target,Cytomegalovirus,,UL97 kinase,,IC50,,<100 µM
COc1c2c(cc3c1C1Oc4c(ccc(O)c4CC=C(C)C)C1CO3)OC(C)(C)C=C2,culture,Mycobacterium tuberculosis,INH-r,,,MIC,,12.5 µg/mL
COc1cccc(N2CCN(c3cncc(-c4ccc(CO)cc4)n3)CC2)c1,target,Cytomegalovirus,,UL97 kinase,,inhibition,1 µM,<50%
S=C(S)Nc1ccc(Cl)cc1,culture,Mycobacterium tuberculosis,EMB-R,,,MIC,,12.5 µg/mL
CC1=CC(=C(c2ccc(N)cc2)c2ccc(N)cc2)C=CC1=N,culture,Mycobacterium tuberculosis,H37Rv,,,MIC,,100 µg/mL
O=C(O)[C@H](CS)NC1CC(=O)N(Cc2ccccc2)C1=O,culture,Mycobacterium tuberculosis,H37Rv,,BACTEC,MIC,,≥12.8 µg/mL
Fc1ccc(N2CCCCC2)c(NC(=S)c2ccncc2)c1,host protein,,,RET (M918T),kinase activity,inhibition,10 µM,0.3%
Cc1ccc(-c2cncc(N3CCN(c4ccc(F)cc4)CC3)n2)cc1,target,Cytomegalovirus,,UL97 kinase,,IC50,,<10 µM
CCC(=O)N1C(=O)C(C)C23c4cc(OC)c(OC)cc4C(=O)N2CCCN13,culture,Mycobacterium tuberculosis,H37Rv,,BACTEC,MIC bound,,>12.8 µg/mL
Nc1nc(N)nc(Nc2ccc(C(=O)O)cc2)n1,culture,Mycobacterium tuberculosis,H37Rv,,,MIC,,>100 µg/mL
CC(=O)c1ccc(N2CCN(c3cncc(-c4ccoc4)n3)CC2)cc1,target,Cytomegalovirus,,UL97 kinase,,inhibition,1 µM,<50%
CN(C)CCC(=O)c1cccc([N+](=O)[O-])c1.Cl,culture,Mycobacterium tuberculosis,H37Rv,,,MIC,,25 µg/mL
CC(=O)c1cccc(-c2cncc(N3CCN(c4cccc(Cl)c4)CC3)n2)c1,target,Cytomegalovirus,,UL97 kinase,,IC50,,<10 µM
O=C(CC(=O)Nc1ccccc1)Nc1ccccc1,culture,Mycobacterium tuberculosis,H37Rv,,,MIC,,>100 µg/mL
CCN(CC)c1ccc(NC2=CC(=O)C(Nc3ccc(N(CC)CC)cc3)=CC2=O)cc1,culture,Mycobacterium tuberculosis,H37Rv,,resazurin,MIC bound,,>6.25 µg/mL
OCCc1ccc2ccccc2n1,culture,Mycobacterium tuberculosis,H37Rv,,,MIC,,>100 µg/mL
FC(F)(F)c1ccc(N2CCN(c3cncc(-c4ccc5ccccc5c4)n3)CC2)cc1,target,Cytomegalovirus,,UL97 kinase,,IC50,,<10 µM
O=C(NNCC(F)(F)F)c1ccncc1,culture,Mycobacterium tuberculosis,,,BACTEC,inhibition,0.5 µM,0%
CCc1ccc(O)cc1O,culture,Mycobacterium tuberculosis,H37Rv,,,MIC,,25 µg/mL
Nc1ccc2nc(NCCCO)c3ccccc3c2c1,culture,Mycobacterium tuberculosis,H37Rv,,BACTEC,inhibition,12.5 µg/mL,76%
CCCCCCCC/C=C\CCCCCCCCCCCC(=O)O,culture,Mycobacterium tuberculosis,H37Rv,,,MIC,,>100 µg/mL
CC(C)(C)CC(C)(O)CN(CC(C)(O)CC(C)(C)C)C(=S)S,culture,Mycobacterium tuberculosis,INH-r,,,MIC,,3.1 µg/mL
C=CCc1ccc(OC)c(OC)c1,culture,Candida tropicalis,2960,,turbidity,MIC90,,340 µg/mL

Repeating the final 2 entries:

| smiles | kind | agent | strain or isolate | protein | method | measure | tested at | value |
|---|---|---|---|---|---|---|---|---|
| CC(C)(C)CC(C)(O)CN(CC(C)(O)CC(C)(C)C)C(=S)S | culture | Mycobacterium tuberculosis | INH-r |  |  | MIC |  | 3.1 µg/mL |
| C=CCc1ccc(OC)c(OC)c1 | culture | Candida tropicalis | 2960 |  | turbidity | MIC90 |  | 340 µg/mL |

Rows are shuffled and stem from different studies. Inhibition is in % at the dose shown (toxicity tests: loss of growth or viability). A number after MIC or MFC names an inhibition level or a share of isolates. MIC bound comes from a single tested concentration. ICn is the concentration giving n% inhibition.